Experimental findings from paper PMC10115812, “Dephosphocholination by Legionella effector Lem3 functions through remodelling of the switch II region of Rab1b” (Nature Communications, 2023) are described below.

Residue numbers refer to the chain shown, from its start. Names and notes keep the numbering of the source.

For one test, the target named is Lem3_(21-486, D190A) (Legionella pneumophila, UniProt Q5ZXN5 21-486, D190A).
Test [1] has as its target Lem3_(D190A_C134S_C209S_C456S) (Legionella pneumophila, UniProt Q5ZXN5 21-486, D190A | C134S | C209S | C456S).
The target in test [2] is Lem3_(C134S_C209S_T391C_C395S_C456S) (Legionella pneumophila, UniProt Q5ZXN5 21-486, C134S | C209S | T391C | C395S | C456S).

B1: Rab1b_(S76(PC-Cl)) (domain or fragment)
chain: PEYDYLFKLLLIGDSGVGKSCLLLRFADDTYTESYISTIGVDFKIRTIELDGKTIKLQIWDTAGQERFRTITSSYYRGAHGIIVVYDVTDQESYANVKQWLQEIDRYASENVNKLLVGNKSDLTTKKVVDNTTAKEFADSLGIPFLETSAKNATNVEQAFMTMAAEIKKRMG
modifications: phosphocholine-chloroacetamide (PC-Cl, thiol-reactive, C3 linker) at S76
On to B1, for which the binding result with Lem3_(21-486, D190A) is on record as “binds”; in test [1] it was “binds”.

B2: Rab1b_(S76T(PC-Cl)) (domain or fragment)
chain: B1 chain with S74T
As to B2, the binding result in test [2] is recorded as “binds”.
